This note sets out measurements from patent US20250263469A1, “POLYPEPTIDES TARGETING SARS-COV-2 AND RELATED COMPOSITIONS AND METHODS” (HOSPITAL FOR SICK CHILDREN, published 2025).

Some targets named below: A475V (RBD mutations) (SARS-CoV-2); V483A (RBD mutations) (SARS-CoV-2); N439K (RBD mutations) (SARS-CoV-2); L452R (RBD mutations) (SARS-CoV-2).
Common to all, as to assay: heat map 'Binding effect': affinity for mutated RBD against WT RBD

B1: mAb 80 (antibody, V domains shown)
VH: QVQLVQSGAEVKKPGSSVKVSCKASGGTFNRYAFSWVRQAPGQGLEWMGGIIPIFGTANYAQKFQGRVTITADESTSTAYMELSSLRSEDTAVYYCARSTRELPEVVDWYFDLWGRGTLVTVSS
VL: DIVMTQSPDSLAVSLGERATINCKSSQSVLYSSNNKNYLAWYQQKPGQPPKLLIYWASTRESGVPDRFSGSGSGTDFTLTISSLQAEDVAVYYCQQYYSAPLTFGGGTKVEIKR
For B1, the “Affinity change vs WT RBD” value in the assay with A475V (RBD mutations) is 0.2 fold; in the assay with V483A (RBD mutations), 0.6 fold; with N439K (RBD mutations), -0.7 fold.

B2: mAb 298 (antibody, V domains shown)
VH: QVQLVQSGAEVKKPGASVKVSCKASGGTFSTYGISWVRQAPGQGLEWMGWISPNSGGTDLAQKFQGRVTMTRDTSTSTVYMELSSLRSEDTAVYYCASDPRDDIAGGYWGQGTLVTVSS
VL: not shown
Regarding B2, the “Affinity change vs WT RBD” value with A475V (RBD mutations) is -4.3 fold; with V483A (RBD mutations), -1.9 fold; with L452R (RBD mutations) it was -2.4 fold; with N439K (RBD mutations) it was -0.4 fold.
